Measurements: patent US7709004B2 (Bionor Immuno AS, priority 1999, dated 2010)

What was measured:
[1] = peptide synthesis; Tenta Gel P RAM, theoretical loading 0.20 meq/g (RAPP POLYMERE GmbH); settings: whole synthesis, analytical HPLC
[2] = general procedure: peptide synthesis; Tenta Gel P RAM, theoretical loading 0.20 meq/g (RAPP POLYMERE GmbH); settings: analytical HPLC

RNIPIPVGDIYGGGDIYKRWQALCL
final HPLC purity [1]: 85%

RALGPAATLQTPWTASLGVG
final HPLC purity ([2]; whole synthesis): more than 95%

PEPTIDE1{K.A.L.G.P.G.A.T.L.Q.T.P.W.T.A.C.Q.G.V.G.[am]}|PEPTIDE2{W.I.I.P.G.L.N.P.L.V.G.G.G.K.L.Y.S.P.T.S.I.L.C.G.[am]}$PEPTIDE1,PEPTIDE2,16:R3-23:R3$$$V2.0
final HPLC purity ([2]; conjugation step): 92%

R F I I P NI FTALSGGRRALLYGATPYAIG
final HPLC purity ([2]; whole synthesis): more than 95%

RWLLLGLNPLVGGGRLYSPTSILG
final HPLC purity ([2]; whole synthesis): more than 95%

KALGPGATLQTPWTACQGVG - NH2
final HPLC purity ([2]; whole synthesis): 87%

RAIPIPAGTLLSGGGRAIYKRWAILG
final HPLC purity [1]: more than 95%

WIIPGLNPLVGGGKLYSPTSILCG-NH2
final HPLC purity ([2]; whole synthesis): 95%

For some assays here: Strings that start with PEPTIDE1 are HELM notation: dots part the residues, brackets hold end groups and non-standard residues.
